Experimental data: PubChem BioAssay AID1259414 (Drosophila RNAi Screening Center, 2018)
Test: 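Genome-wide screen for host control of endosymbiont load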 (primary screen). Cell system: Drosophila JW18 cells infected with Wolbachia. Reagent: long dsRNA against Drosophila genes, 0.25 µg dsRNA per well of a 384-well plate. Timing: 5 days. Treatment: cells persistently infected with Wolbachia before knock-down; no added drug. Detection: 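Automated imaging of bacterial rRNA staining divided by host cell count, reported as plate-normalised robust z-score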. Reading the numbers: Wolbachia per cell robust z: higher = more Wolbachia per host cell than the plate typical. Call rule: 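Hit when robust z is 1.5 or more, or -1.5 or less, in at least two of three replicates; excludes dsRNAs with several or no targets, genes not expressed in JW18 and well A1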.
The screen tested about 24,000 reagents; this is a random part of those with a known target gene and a result. Of all reagents, about 1,210 (5%) are marked active. 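Inactive calls also include excluded dsRNAs with several or no targets, genes unexpressed in JW18, and well A1, regardless of score.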 No sequences are given here.

What did the screen give for CG12811 [DRSC14549]?
Wolbachia per cell robust z, rep 1: -1.27; Wolbachia per cell robust z, rep 2: -0.642; Wolbachia per cell robust z, rep 3: -0.764; call: inactive

For CG10949 [DRSC02112], what does the deposit list?
Wolbachia per cell robust z, rep 1: 0.0876; Wolbachia per cell robust z, rep 2: -1.32; Wolbachia per cell robust z, rep 3: -0.103; call: inactive

For CG10949 [DRSC27310], what was measured?
Wolbachia per cell robust z, rep 1: 0.811; Wolbachia per cell robust z, rep 2: 1.13; Wolbachia per cell robust z, rep 3: 0.164; call: inactive

Which result is listed for Elo68alpha (Elongase 68alpha) [DRSC22725]?
Wolbachia per cell robust z, rep 1: 0.264; Wolbachia per cell robust z, rep 2: 0.901; Wolbachia per cell robust z, rep 3: -0.703; call: inactive

With MESR6 (Misexpression suppressor of ras 6) [DRSC10720], what does the deposit list?
Wolbachia per cell robust z, rep 1: -2.75; Wolbachia per cell robust z, rep 2: 0.235; Wolbachia per cell robust z, rep 3: 0.621; call: inactive

With MESR6 (Misexpression suppressor of ras 6) [DRSC28344], what does the deposit list?
Wolbachia per cell robust z, rep 1: 0.47; Wolbachia per cell robust z, rep 2: 0.801; Wolbachia per cell robust z, rep 3: 0.0232; call: inactive

Which result is listed for Reepl1 (Receptor accessory protein like 1) [DRSC19418]?
Wolbachia per cell robust z, rep 1: -2.65; Wolbachia per cell robust z, rep 2: 0.25; Wolbachia per cell robust z, rep 3: 0.125; call: inactive

Which result is listed for Reepl1 (Receptor accessory protein like 1) [DRSC26698]?
Wolbachia per cell robust z, rep 1: 0.589; Wolbachia per cell robust z, rep 2: 0.686; Wolbachia per cell robust z, rep 3: 0.619; call: inactive

What did the screen give for Fam92 [DRSC02952]?
Wolbachia per cell robust z, rep 1: -0.681; Wolbachia per cell robust z, rep 2: -0.618; Wolbachia per cell robust z, rep 3: -0.748; call: inactive

What is on record for Fam92 [DRSC29237]?
Wolbachia per cell robust z, rep 1: -0.763; Wolbachia per cell robust z, rep 2: 0.601; Wolbachia per cell robust z, rep 3: 0.507; call: inactive

2 entries from above, sorted by “Wolbachia per cell robust z, rep 3”, high to low:
MESR6 (Misexpression suppressor of ras 6) [DRSC10720]: Wolbachia per cell robust z, rep 1 = -2.75; Wolbachia per cell robust z, rep 2 = 0.235; Wolbachia per cell robust z, rep 3 = 0.621; call = inactive
MESR6 (Misexpression suppressor of ras 6) [DRSC28344]: Wolbachia per cell robust z, rep 1 = 0.47; Wolbachia per cell robust z, rep 2 = 0.801; Wolbachia per cell robust z, rep 3 = 0.0232; call = inactive

The list goes on:
With RpL21 (Ribosomal protein L21) [DRSC03704], what was measured?
Wolbachia per cell robust z, rep 1: 2.49; Wolbachia per cell robust z, rep 2: 2.04; Wolbachia per cell robust z, rep 3: 1.54; call: active

How did the screen score Parp1 (Poly-(ADP-ribose) polymerase 1) [DRSC07725]?
Wolbachia per cell robust z, rep 1: -0.133; Wolbachia per cell robust z, rep 2: 0.513; Wolbachia per cell robust z, rep 3: 1.7; call: inactive

What did the screen give for Parp1 (Poly-(ADP-ribose) polymerase 1) [DRSC07778]?
Wolbachia per cell robust z, rep 1: -0.417; Wolbachia per cell robust z, rep 2: -0.172; Wolbachia per cell robust z, rep 3: -3.47; call: inactive

What did the screen give for Parp1 (Poly-(ADP-ribose) polymerase 1) [DRSC07780]?
Wolbachia per cell robust z, rep 1: -0.477; Wolbachia per cell robust z, rep 2: -1.38; Wolbachia per cell robust z, rep 3: -0.353; call: inactive

Which result is listed for Rad60 [DRSC15580]?
Wolbachia per cell robust z, rep 1: 0.715; Wolbachia per cell robust z, rep 2: 0.876; Wolbachia per cell robust z, rep 3: 0.0921; call: inactive

For Tusp [DRSC15838], how do the results read?
Wolbachia per cell robust z, rep 1: 0.495; Wolbachia per cell robust z, rep 2: -3.62; Wolbachia per cell robust z, rep 3: 0.169; call: inactive
